Results of unrelated studies side by side (data: NIAID ChemDB).

Common to all: growth or infection tests; agent: Mycobacterium tuberculosis

ECn is the concentration giving n% inhibition of infection, replication or growth. Lines come from different laboratories, so protocols vary. Inhibition is in % at the dose shown (toxicity tests: loss of growth or viability). Two numbers with a dash give a range or band. MIC bound: limit read from a one-dose screen. Blank or dashed fields: not listed here. MIC50, MIC90 and the like: level of inhibition, or share of isolates inhibited.

smiles,strain,cells,read by,setting,measure,dose,result
O=C(Nc1ccccc1)c1cc2ccccc2s1,H37Rv,-,BACTEC,-,MIC bound,-,>6.25 µg/mL
CCCCN1C(=O)CS/C1=N\NC(=O)COc1cnccn1,H37Rv,-,-,-,MIC,-,156 µg/mL
NNC(=O)C1COc2ccccc2O1,H37Rv,-,BACTEC,-,inhibition,12.5 µg/mL,15%
NC(=O)c1cnccn1,Isolate 10257 monodrug-resistant,-,-,-,MIC,-,>300 µg/mL
COc1ccc(-c2coc3c4c(ccc3c2=O)OC(C)(C)C=C4)cc1,H37Rv,-,BACTEC,-,inhibition,12.5 µg/mL,-19%
CO[C@H]1/C=C/O[C@@]2(C)Oc3c(C)c(O)c4c(O)c(c(/C=N/N5CCN(C/C=C/c6ccccc6)CC5)c(O)c4c3C2=O)NC(=O)/C(C)=C\C=C\[C@H](C)[C@H](O)[C@@H](C)[C@@H](O)[C@@H](C)[C@H](OC(C)=O)[C@@H]1C,MTB11 (EMB-R),-,-,-,MIC,-,≤0.06 µg/mL
Cn1c(NNc2nc(Nc3cccc(Cl)c3)nc(Nc3cccc(Cl)c3)n2)nc(-c2ccc(Cl)cc2)c(C#N)c1=O,H37Rv,-,-,-,EC50,-,>12.5 µg/mL
O=c1oc2cccnc2n1CCN1CCN(c2ccc(Oc3ccccc3)cc2)CC1,H37Rv,-,resazurin,-,MIC bound,-,>6.25 µg/mL
CC(=O)c1c(COc2ccccc2)n([O-])c2ccccc2[n+]1=O,H37Rv,VERO,BACTEC,-,EC50,-,<6.25 µg/mL
CCCCn1c(-c2ccc(O)cc2)cs/c1=N\NC(=O)COc1cnccn1,H37Rv,-,-,-,MIC,-,7.9 µg/mL
CCCCCCCCCCCNCCNCc1cccc(C)c1,-,-,-,-,MIC,-,6.25 µM
CC1NOC(NS(=O)(=O)c2ccc(N=Nc3ccc[nH]c3=O)cc2)C1C,H37Rv,-,BACTEC,-,MIC bound,-,>12.5 µg/mL
CCOC(=O)c1ccc2nc(-c3ccc4c(c3)OCO4)[nH]c2c1,H37Rv,-,resazurin / fluorescence,-,EC90,-,>100 µM
O=c1[nH]c2cc([N+](=O)[O-])ccc2c(O)c1N=Nc1ccc(Cl)c(F)c1,H37Rv,-,resazurin,-,inhibition,6.25 µg/mL,70%
C/C(=N\NC(=O)c1ccncc1)c1ccc(Cl)c(Cl)c1,H37Rv,-,-,-,MIC,-,>20 µg/mL
CN(C)c1ccc(C(C2=C(O)c3ccccc3C(=O)C2=O)C2=C(O)c3ccccc3C(=O)C2=O)cc1,H37Rv,-,BACTEC,-,MIC bound,-,>12.5 µg/mL
Cc1cccc(N=Nc2c(O)c3ccc([N+](=O)[O-])cc3[nH]c2=O)c1,H37Rv,-,resazurin,-,inhibition,6.25 µg/mL,19%
Cc1ccc(C=C(C(=O)O)C(=O)O)o1,H37Rv,-,BACTEC,-,inhibition,12.5 µg/mL,12%
NC[C@@H]1O[C@H](O[C@H]2[C@@H](O)[C@H](O[C@@H]3[C@@H](O)[C@H](N)C[C@H](N)[C@H]3O[C@H]3O[C@H](CO)[C@@H](O)C[C@H]3N)O[C@@H]2CO)[C@H](N)[C@@H](O)[C@@H]1O[C@H]1O[C@H](CO)[C@@H](O)[C@H](O)[C@@H]1O,H37Rv (isoniazid-resistant),-,-,-,EC50,-,25–50 µg/mL
Cn1c(=O)c(N=Nc2ccccc2[N+](=O)[O-])c(O)c2ccccc21,H37Rv,-,resazurin,-,inhibition,6.25 µg/mL,94%
COc1cccc(Nc2nc(NNc3nc(-c4ccc(Cl)cc4)c(C#N)c(=O)n3C)nc(Nc3cccc(OC)c3)n2)c1,H37Rv,-,-,-,inhibition,12.5 µg/mL,21%
CCOC(=O)c1ccc2c(c1)nc(-c1ccc(N(C)C)cc1)n2CCN1CCCOC1,H37Rv,-,resazurin / fluorescence,-,EC90,-,>100 µM
CC(NNC(=O)c1ccncc1)c1cccc(C(F)(F)F)c1,H37Rv,-,-,-,MIC,-,1.6 µg/mL
CC(=O)c1ccc(N=Nc2c(O)c3cccc(Cl)c3[nH]c2=O)cc1,H37Rv,-,resazurin,-,inhibition,6.25 µg/mL,24%
COc1ccc(-c2coc3c4c(c(CC=C(C)C)c(O)c3c2=O)OC(C)(C)C=C4)cc1OC,H37Rv,-,BACTEC,-,inhibition,12.5 µg/mL,-8%
Cn1c(NNc2nc(Nc3cc(Cl)cc(Cl)c3)nc(Nc3cc(Cl)cc(Cl)c3)n2)nc(-c2ccc(Cl)cc2)c(C#N)c1=O,H37Rv,-,-,-,EC50,-,<12.5 µg/mL
C[C@H]1COc2c(N3CCN(C)CC3)c(F)cc3c(=O)c(C(=O)O)cn1c23,206 isolates (susceptible),-,-,-,Mean MIC,-,0.549 µg/mL
CCOC(=O)c1ccc2c(c1)nc(-c1ccc(N3CCOCC3)cc1)n2CCN1CCCC1=O,H37Rv,-,resazurin / fluorescence,-,EC50,-,61.45 µM
O=C(CCCCC(=O)N/N=C/c1ccco1)N/N=C/c1ccco1,H37Rv,-,BACTEC,-,MIC bound,-,>12.5 µg/mL
CC(NNC(=O)c1ccncc1)c1ccc(F)cc1,Isoniazid-resistant,-,-,-,MIC,-,>50 µg/mL
CC(=O)c1c(C)n([O-])c2ccccc2[n+]1=O,H37Rv,-,-,inside macrophages,EC50,-,<2.72 µg/mL
Cn1c(NNc2nc(Nc3ccc(F)c(Cl)c3)nc(Nc3ccc(F)c(Cl)c3)n2)nc(-c2ccccc2)c(C#N)c1=O,H37Rv,-,-,-,EC50,-,<12.5 µg/mL
CC(=O)c1c(COc2ccc(Cl)cc2)n([O-])c2ccccc2[n+]1=O,H37Rv,VERO,BACTEC,-,EC50,-,<6.25 µg/mL
N#C/C(=C\c1ccc(F)cc1F)n1nnc2ccccc21,ATCC 27294,-,-,-,MIC50,-,>100 µM
O=C1NC(=NCc2ccccc2)N/C1=C\c1ccccc1Cl,H37Rv,-,-,-,MIC,-,>12.5 µg/mL
CC(C)S(=O)(=O)n1c(N)nc2ccc(/C(=N/O)c3ccccc3)cc21,H37Rv,-,BACTEC,-,inhibition,12.5 µg/mL,0%
Cc1c(C(=O)c2ccccc2)[n+](=O)c2ccccc2n1[O-],H37Rv,VERO,BACTEC,-,MIC,-,6.25 µg/mL
CC(NCCNCCc1ccccc1)c1cccc2ccccc12,-,-,-,-,MIC,-,50 µM
CN(NC(=O)C(=O)NCc1ccco1)C(=O)Nc1ccccc1,H37Rv,-,BACTEC,-,MIC bound,-,>12.5 µg/mL
O=c1[nH]c2ccc(Cl)cc2c(O)c1N=Nc1ccc([N+](=O)[O-])cc1,H37Rv,-,resazurin,-,inhibition,6.25 µg/mL,91%
Cn1c(NNc2nc(Nc3cc(Cl)cc(Cl)c3)nc(Nc3cc(Cl)cc(Cl)c3)n2)nc(-c2ccccc2)c(C#N)c1=O,H37Rv,VERO,-,-,EC50,-,<12.5 µg/mL
CCOC(=O)c1ccc2c(c1)nc(-c1ccc(Br)cc1)n2CCN1CCCOC1,H37Rv,-,resazurin / fluorescence,-,EC90,-,>100 µM
Cc1coc(NS(=O)(=O)c2ccc(N=Nc3c(N)nc(N)[nH]c3=O)cc2)c1C,H37Rv,-,BACTEC,-,MIC bound,-,>12.5 µg/mL
O=C1NC(Nc2cccc(Cl)c2)=N/C1=C\c1ccc(Cl)cc1Cl,H37Rv,-,-,-,MIC,-,>6.25 µg/mL
C/C(=N\NC(=O)c1ccncc1)c1ccccc1F,6 PI,-,-,-,MIC,-,>20 µg/mL
CCOC(=O)c1ccc2nc(C3C(c4ccccc4)C(=O)C3c3ccc(OC)cc3)[nH]c2c1,H37Rv,-,resazurin / fluorescence,-,MIC,-,>100 µM
CO/C(=N\N=C\c1ccc(Cl)cc1Cl)c1ccncc1,6 PI,-,-,-,MIC,-,>20 µg/mL
CC(=O)c1c(CBr)n([O-])c2ccccc2[n+]1=O,H37Rv,-,BACTEC,-,EC50,-,>6.25 µg/mL
O=C(COc1cnccn1)N/N=c1\scc(-c2ccc(F)cc2)n1-c1ccc(Cl)cc1Cl,H37Rv,-,-,-,MIC,-,12.2 µg/mL
CC(CNCC(c1ccccc1)c1ccccc1)NC[C@@H]1CC[C@H]2C[C@@H]1C2(C)C,-,-,-,-,MIC,-,12.5 µM
CCC1(c2ccccc2)NC(=O)N(N)C1=O,H37Rv,-,BACTEC,-,MIC bound,-,>12.5 µg/mL
C/C(=N\NC(=O)c1ccncc1)c1ccc(F)cc1,H37Rv,-,-,-,MIC,-,0.05 µg/mL
CCCCC(CC)CN1CN(CC(CC)CCCC)CC(C)(NCCN[C@@H](C)C2CCCCC2)C1,-,-,-,-,MIC,-,25 µM
Cn1c(=O)c2c(ncn2CC[n+]2cccc(C(N)=O)c2)n(C)c1=O.[Cl-],H37Rv,-,BACTEC,-,MIC,-,≥12.5 µg/mL
CC(=O)c1c(CBr)n([O-])c2cc(Cl)c(Cl)cc2[n+]1=O,H37Rv,-,BACTEC,-,EC50,-,>6.25 µg/mL
O=C(N/N=C/c1cccc(C(F)(F)F)c1)c1ccncc1,H37Rv (rifampin-resistant),-,-,-,MIC,-,1 µg/mL
CCCCC(CC)CN1CN(CC(CC)CCCC)CC(C)(NCCNCCCCO)C1,-,-,-,-,MIC,-,12.5 µM
O=C(N/N=C/c1cccc(F)c1)c1ccncc1,H37Rv (isoniazid-resistant),-,-,-,MIC,-,>128 µg/mL
Cn1c(NNc2nc(Nc3ccc(Cl)cc3)nc(Nc3ccc(Cl)cc3)n2)nc(-c2ccccc2)c(C#N)c1=O,H37Rv,-,-,-,inhibition,12.5 µg/mL,0%
O=C1NC(Nc2cccc(Cl)c2)=N/C1=C\c1ccccc1Cl,H37Rv,-,-,-,inhibition,12.5 µg/mL,91%
O=C(Nc1cccnc1)c1ccc(CSc2ccc(Cl)cc2)o1,H37Rv,-,BACTEC,-,inhibition,12.5 µg/mL,85%
CCCCn1c(-c2ccc(C)cc2)cs/c1=N\NC(=O)COc1cnccn1,H37Rv,-,-,-,MIC,-,20 µg/mL
CC(=O)O.COC(=O)C1C(O)C(C)C(O)C(C)/C=C\C=C(\C)C(=O)Nc2c(C)c(OC(C)=O)c3c(c2O)C(=O)C(C)=C2OCOC(=C23)/C(C)=C\C(C)(O)C(O)C(C)C1O,H37Rv,-,BACTEC,-,MIC bound,-,>12.5 µg/mL
O=C(NNCc1cccc(C(F)(F)F)c1)c1ccncc1,H37Rv (thiacetazone-resistant),-,-,-,MIC,-,>31.25 µg/mL
C=C1CC(C2OCOC3COCOC32)OC1=O,H37Rv,-,BACTEC,-,MIC bound,-,>12.5 µg/mL
N#C/C(=C/c1ccccc1I)n1nnc2ccccc21,ATCC 27294,-,-,-,MIC90,-,28.2 µM
CC(CCc1ccccc1)NCCNC[C@]1(C)CCC[C@]2(C)c3ccc(C(C)C)cc3CC[C@@H]12,-,-,-,-,MIC,-,12.5 µM
[N-]=[N+]=C1N=NC=C1C(N)=O,H37Rv,-,BACTEC,-,inhibition,12.5 µg/mL,6%
CO/N=C1\CN(c2nc3c(cc2F)c(=O)c(C(=O)O)cn3C2CC2)CC1CN,206 isolates (susceptible),-,-,-,Mean MIC,-,4.878 µg/mL
N#C/C(=C\c1ccccc1F)n1nnc2ccccc21,ATCC 27294,-,-,-,MIC90,-,89.4 µM
CC(=O)NC[C@H]1CN(c2ccc(N3CCN(c4ccc([N+](=O)[O-])s4)CC3)c(F)c2)C(=O)O1,PC,-,-,-,MIC,-,≤0.125 µg/mL
COc1ccccc1Nc1nc(NNc2nc(-c3ccc(Cl)cc3)c(C#N)c(=O)n2C)nc(Nc2ccccc2OC)n1,H37Rv,-,-,-,MIC,-,>12.5 µg/mL
CC1(C)[C@@H]2CC[C@@]1(C)[C@@H](NCCNCC(c1ccccc1)c1ccccc1)C2,-,-,-,-,MIC,-,6.25 µM
COc1ccc(N=Nc2c(O)c3c(Cl)ccc(Cl)c3[nH]c2=O)c(C)c1,H37Rv,-,resazurin,-,inhibition,6.25 µg/mL,40%
O=C1NC(Nc2cccc(Cl)c2)=N/C1=C\c1c(Cl)cccc1Cl,H37Rv,-,-,-,MIC,-,>12.5 µg/mL
CC(=O)c1c(COc2ccc([N+](=O)[O-])cc2)n([O-])c2ccccc2[n+]1=O,H37Rv,VERO,BACTEC,-,inhibition,6.25 µg/mL,97%
N[C@@H]1CONC1=O,H37Rv,-,resazurin / fluorescence,-,MIC,-,>100 µM
COc1ccccc1/C=C(\C#N)n1nnc2ccccc21,ATCC 27294,-,-,-,MIC50,-,32.3 µM
O=C(NCCCl)N1CCC(CN=c2cc3n(-c4ccc(Cl)cc4)c4ccccc4nc-3cc2Nc2ccc(Cl)cc2)CC1,RMP-R,-,-,-,MIC,-,0.2 µg/mL
CCOC(=O)c1ccc2c(c1)nc(-c1ccc([N+](=O)[O-])cc1)n2CCN1CCCOC1,H37Rv,-,resazurin / fluorescence,-,EC50,-,>100 µM
CC(=O)c1c(C)n([O-])c2cc(Cl)c(Cl)cc2[n+]1=O,H37Rv,VERO,BACTEC,-,MIC,-,0.39 µg/mL
COc1cc(CNCCNC[C@]2(C)CCC[C@]3(C)c4ccc(C(C)C)cc4CC[C@@H]23)cc(OC)c1OC,-,-,-,-,MIC,-,50 µM
NNOC(=O)COc1cnccn1,H37Rv,-,-,-,MIC,-,>200 µg/mL
C[C@@H]1CC[C@@]2(OC1)O[C@H]1C[C@H]3[C@@H]4CC=C5C[C@@H](O)CC[C@]5(C)[C@H]4CC[C@]3(C)[C@H]1[C@@H]2C,H37Rv,-,BACTEC,-,MIC bound,-,>128 µg/mL
CO/C(=N\N=C\c1cccc(C(C)(F)F)c1)c1ccncc1,6 PI,-,-,-,MIC,-,>20 µg/mL

For reference, 4 entries again:

smiles,strain,cells,read by,setting,measure,dose,result
Cn1c(=O)c(N=Nc2ccccc2[N+](=O)[O-])c(O)c2ccccc21,H37Rv,-,resazurin,-,inhibition,6.25 µg/mL,94%
CN(NC(=O)C(=O)NCc1ccco1)C(=O)Nc1ccccc1,H37Rv,-,BACTEC,-,MIC bound,-,>12.5 µg/mL
Cc1cccc(N=Nc2c(O)c3ccc([N+](=O)[O-])cc3[nH]c2=O)c1,H37Rv,-,resazurin,-,inhibition,6.25 µg/mL,19%
COc1ccc(N=Nc2c(O)c3c(Cl)ccc(Cl)c3[nH]c2=O)c(C)c1,H37Rv,-,resazurin,-,inhibition,6.25 µg/mL,40%